# No end group written: not given here.
# What was measured:
# [1] = Interface impermeability of restored dentin discs (silver nitrate, micro-CT), before and after aging; design: species or system bovine
# [2] = Diametral-compression fracture resistance of restored dentin discs; design: species or system bovine
sequence,measurement,setting,value
GKIIKLKASLKLL [GL13K],silver nitrate penetration after aging,"[1]; 2-month water storage plus 2,500 thermal cycles, versus control samples",reduction was also significant
same,increase in silver nitrate volume penetration after aging,[1]; GL13K-coated dentin restored using bonding agent,no significant increase
same,bond strength of the dentin-restoration interface,[2]; GL13K layer at dentin surface versus non-coated,did not lower the bond strength
same,reduction of mechanical strength on removal of the bonding agent,[2]; specimens with hydrophobic (GL13K-coated) dentin,not statistically significant
